A mixed list of measured activities; the numbers were collected in NIAID ChemDB.

All rows: host cell toxicity; cells: MT-4; endpoint: CC50

CCn: concentration that lowers growth or viability of the cells by n%. a–b is a range or a potency band. An empty or dashed field is not shown. Rows are shuffled and stem from different studies.

compound,method,value
CC1(C)C=Cc2c(ccc3c2OC[C@@H](c2ccc(O)cc2O)C3)O1,-,4 µg/mL
Cc1cn([C@H]2C[C@H](N=[N+]=[N-])[C@@H](CO)O2)c(=O)[nH]c1=O,MTT,>93 µM
Nc1ncc(CN(CCN2CCCCC2)CC2CCCN(C3CCCC3)C2)cn1,MTT,>100 µM
CC(C)[C@H]1C(=O)N[C@H](CO)Cc2c[nH]c3cccc(c23)N1C,-,0.1 µg/mL
Cc1ccnc2c1NC(=O)c1cccnc1N2C1CC1,-,683 µM
Nc1nc(N)c2ncn([C@H]3C=C[C@@H](CO)O3)c2n1,-,35 µM
CC(C)(C)OC(=O)N1CCCN(C(=O)OC(C)(C)C)CCN(C(=O)OC(C)(C)C)CCCN(CCCCC(=O)OC[C@@H]2CC[C@H](n3cnc4c(=O)[nH]cnc43)O2)CC1,-,50 µM
CCOCn1c(Cc2ccccc2)c(C(C)C)c(=O)[nH]c1=O,MTT,>100 µM
Cn1c(=O)cc(Oc2nc(Nc3ccc(C#N)cc3)nc(Nc3ccccn3)n2)c2ccccc21,MTT,≥74.1 µg/mL
CCCCCCCCCCc1ccc2c(c1)N(C)[C@@H](C(C)C)C(=O)NC(CO)C2,-,5–10 µg/mL
Cc1cn([C@@H]2O[C@H](CO[Si](C)(C)C(C)(C)C)[C@@]3(OS(=O)(=O)C=C3N)[C@H]2O[Si](C)(C)C(C)(C)C)c(=O)nc1N(C)C,-,62 µM
CCOP(=O)(OC[C@@H]1C=C[C@H](n2cc(C)c(=O)[nH]c2=O)O1)C(N)=O,MTT,214 µM
Cn1c(Cn2ccc(C(F)(F)F)c(Oc3ccc(-c4ccc(C#N)cc4)c(F)c3)c2=O)n[nH]c1=O,MTT,37.8 µM
Cn1c(=O)cc(Oc2nc(Nc3ccc(C#N)cc3)nc(Sc3nc4ccccc4s3)n2)c2ccccc21,MTT,72.78 µg/mL
O=C1Nc2cscc2S(=O)(=O)N1Cc1ccccc1,-,78.8 µM
CCCCCCCCCCc1ccc2c(c1)N(C)[C@@H](C(C)C)C(=O)N[C@H](CO)CC2,-,10 µg/mL
Cc1cc(C=O)cc(C)c1Oc1ncc(NC(=O)C(F)(F)F)c(Nc2ccc(C#N)cc2)n1,MTT,≥216 µM
CC(C)=CCc1c(O)c(CC=C(C)C)c2occ(-c3ccc(O)cc3)c(=O)c2c1O,-,11 µg/mL
Cc1cc(C#N)cc(C)c1Oc1ncc([N+](=O)[O-])c(Nc2ccc(C#N)cc2)n1,MTT,≥274 µM
C=C(C)[C@H]1[C@@H]2OC3(CCCCCCCCC)O[C@@H]2[C@@H]2[C@@H]4O[C@]4(CO)[C@@H](O)[C@]4(O)C(=O)C(C)=C[C@H]4[C@@]2(O3)[C@@H]1C,luminescence,>0.03 µM
c1cnc2c(c1)cc(CN1CCCNCCNCCCNCC1)c1cccnc12,-,15.3 µM
CCOP(=O)(OC[C@@H]1C=C[C@H](n2cc(C)c(=O)[nH]c2=O)O1)C(=O)NCCc1ccccc1,MTT,66.3 µM
Nc1ccn([C@H]2CC[C@@H](CO)O2)c(=O)n1,MTT,>20 µg/mL
N#CCN1C(=O)N(Cc2ccccc2)c2cscc2S1(=O)=O,-,291.3 µM
CC(C)(C)OC(=O)N1CCCN(C(=O)OC(C)(C)C)CCN(C(=O)OC(C)(C)C)CCCN(C(=O)CCCC(=O)OC[C@@H]2CC[C@H](n3ccc(N)nc3=O)O2)CC1,-,50 µM
Cn1c(=O)cc(Oc2nc(Nc3ccc(C#N)cc3)nc(Nc3nc4ccc(F)cc4s3)n2)c2ccccc21,MTT,2.26 µg/mL
CN1C(=O)N(Cc2ccccc2)c2cscc2S1(=O)=O,-,79.1 µM
Nc1ncnc2c1ncn2[C@H]1C[C@@H](F)[C@@H](CO)O1,-,>1250 µM
C1CNCCNCCNCCN1,-,19.5 µM
CC(C)Nc1cccnc1N1CCN(C(=O)c2cc3cc(NS(C)(=O)=O)ccc3[nH]2)CC1,MTT,>2 µg/mL
CCCCCCCCCCc1ccc2c(c1)N(C)[C@H](C(C)C)C(=O)N[C@H](CO)C2,-,5 µg/mL
Cc1cn([C@H]2C=C[C@@H](CO)O2)c(=O)[nH]c1=O,-,>100 µM
c1cnc2c(c1)cc(CN1CCNCCNCCNCC1)c1cccnc12,-,17.6 µM
NC(=O)c1[nH]c2ccc(Cl)cc2c1S(=O)(=O)c1ccccc1,MTT,>20 µM
O=C1Nc2c(csc2[N+](=O)[O-])S(=O)(=O)N1Cc1ccccc1,-,<5.9 µM
COc1cc(O)c2c(=O)c(OC)c(-c3ccc(O)cc3)oc2c1,-,51 µg/mL
Cn1c(=O)cc(Oc2nc(Nc3ccc(C#N)cc3)nc(Nc3nc4ccc(Br)cc4s3)n2)c2ccccc21,MTT,14.5 µg/mL
Cc1cc(C#N)cc(C)c1Oc1ncc(NC(=O)C(F)(F)F)c(Nc2ccc(C#N)cc2)n1,MTT,>276 µM
Oc1cccc(CN(CCN2CCCCC2)CC2CCCN(C3CCCC3)C2)c1,MTT,58 µM
CC(C)(C)NC(=O)[C@@H]1C[C@@H]2CCCC[C@@H]2CN1C[C@@H](O)[C@H](Cc1ccccc1)NC(=O)[C@H](CC(N)=O)NC(=O)c1ccc2ccccc2n1,MTT,14 µM
CC(C)(C)OC(=O)N1CCCN(C(=O)OC(C)(C)C)CCN(C(=O)OC(C)(C)C)CCCN(C(=O)CCCC(=O)OC[C@@H]2CC[C@H](n3cnc4c(=O)[nH]cnc43)O2)CC1,-,50 µM
Nc1ncnc2c1ccn2[C@H]1C=C[C@@H](CO)O1,-,>1250 µM
C/C(=C\Cc1c(O)cc(O)c2c(=O)c(-c3ccc(O)cc3)coc12)CO,-,9 µg/mL
Cc1cn([C@H]2C[C@H](N=[N+]=[N-])[C@@H](COC(=O)CCCC(=O)N3CCCN(C(=O)OC(C)(C)C)CCN(C(=O)OC(C)(C)C)CCCN(C(=O)OC(C)(C)C)CC3)O2)c(=O)[nH]c1=O,-,50 µM
COCOc1ccc(/C=C/C(=O)c2c(O)cc(OCOC)cc2OCOC)cc1,-,11 µg/mL
Cn1c(=O)cc(Oc2nc(Nc3ccc(C#N)cc3)nc(Nc3nc4ccc(Cl)cc4s3)n2)c2ccccc21,MTT,2.19 µg/mL

For reference, 2 entries again:

compound,method,value
Cn1c(=O)cc(Oc2nc(Nc3ccc(C#N)cc3)nc(Nc3ccccn3)n2)c2ccccc21,MTT,≥74.1 µg/mL
Cc1cn([C@@H]2O[C@H](CO[Si](C)(C)C(C)(C)C)[C@@]3(OS(=O)(=O)C=C3N)[C@H]2O[Si](C)(C)C(C)(C)C)c(=O)nc1N(C)C,-,62 µM